Results of unrelated studies side by side (data: NIAID ChemDB).

All rows: enzyme or target tests; species: HIV-1; target: Reverse transcriptase

Blank or dashed fields: not listed here.

structure,strain or isolate,read-out,mutations,read by,result
CCc1ccc(-n2c(SCC(=O)Nc3ccc(C(=O)O)cc3C)nnc2C(F)F)c2ccccc12,,IC50,RT-Y188L,nucleotide incorporation / radiometric,>0.1 µM
CCN1c2ncc(CCc3ccc4cc[nH]c4c3)cc2C(=O)N(C)c2cccnc21,WT,IC50,,nucleotide incorporation / radiometric,<1 µM
CC(C)=CCOc1cc(NC(=S)c2ccoc2C)ccc1Cl,,IC50,RT-L100I,,10.2 µM
COc1ccc2c(C)ccc(-n3c(Br)nnc3SCC(=O)Nc3ccc(C(=O)O)cc3Cl)c2c1,,IC50,RT-Y181C,nucleotide incorporation / radiometric,<0.05 µM
CCN1c2ncccc2C(=O)N(C)c2ccc(-c3cnn(CC)c3)nc21,,IC50,RT-Y181C,nucleotide incorporation / radiometric,<1 µM
Cc1cc(C)cc(S(=O)(=O)c2c(C(=O)NC(C)C(N)=O)[nH]c3ccc(Cl)cc23)c1,,IC50,NNRTI-resistant (RT Y181I),RT activity,2.211 µM
CC(C)Nc1cccnc1OCCOC(=O)c1cc2ccccc2[nH]1,,IC50,,nucleotide incorporation,<100 µM
CC[C@H](C)[C@H](NC(=O)c1ccc(NC(=O)CSc2nnc(Br)n2-c2ccc(C3CC3)c3ccccc23)c(Cl)c1)C(=O)O,,IC50,,nucleotide incorporation / radiometric,<0.05 µM
Nc1ccn([C@H]2CC[C@@H](COP(=O)(O)OP(=O)(O)OP(=O)(O)O)O2)c(=O)n1,,IC50,RT-F116Y,nucleotide incorporation / radiometric,0.042 µM
COc1ccc2[nH]c(C(=O)N3CCN(c4ncccc4NC(C)C)CC3)cc2c1,,IC50,,nucleotide incorporation,<100 µM
O=C(CSc1nnc(Br)n1-c1ccc(C2CCC2)c2ccccc12)Nc1ccc(C(=O)O)cc1Cl,,IC50,RT-Y181C,nucleotide incorporation / radiometric,<0.05 µM
CCN1C(=O)c2cccnc2N(C)c2nc(-c3ccc[nH]3)ccc21,,IC50,RT-Y181C,nucleotide incorporation / radiometric,>1 µM
Cc1nnc2c3ccccc3c(N3Cc4ccccc4C(C)(C)C3)nn12,IIIB,IC50,,RT activity / fluorescence,23.6 µM
Cc1cc(S(N)(=O)=O)ccc1NC(=O)CSc1nnc(C)n1-c1ccc(C)c2c1CCCC2,,IC50,,nucleotide incorporation / radiometric,<0.05 µM
CCCN1c2nc(-c3cn[nH]c3)ccc2NC(=O)c2cccnc21,WT,IC50,,nucleotide incorporation / radiometric,<1 µM
CCN1c2ncc(CCc3ccc(N(C)S(C)(=O)=O)cc3)cc2C(=O)N(C)c2ccc(Cl)nc21,WT,IC50,,nucleotide incorporation / radiometric,~1 µM
O=C(CSc1nnc(Br)n1-c1ccc(C2CC2)cc1Cl)Nc1ccc(S(=O)(=O)O)cc1Cl,,IC50,RT-Y181C,nucleotide incorporation / radiometric,<0.05 µM
CCN1c2ncc(CCc3cccc4[nH]ccc34)cc2C(=O)N(C)c2cccnc21,,IC50,RT-Y181C,nucleotide incorporation / radiometric,<1 µM
CCOC(=O)N1CCC(NC(=O)c2ccc(NC(=O)CSc3nnc(Br)n3-c3ccc(CC)c4ccccc34)c(Cl)c2)CC1,,IC50,,nucleotide incorporation / radiometric,<0.05 µM
CC(C)=CCN1Cc2cccc3[nH]c(=S)n(c23)C[C@@H]1C,,IC50,RT-Y188L,nucleotide incorporation,122.4 µM
Cc1nnc2c3ccccc3c(N3CCc4ccc(C#N)cc4C3)nn12,KER2008,IC50,,RT activity / fluorescence,2.48 µM
CCc1ccc(-n2c(Br)nnc2SCC(=O)Nc2ccc(C(=O)NCC(=O)OC)cc2Cl)c2ccccc12,,IC50,RT-Y181C,nucleotide incorporation / radiometric,<0.05 µM
CCNC(=O)c1ccc(NC(=O)CSc2nnc(Br)n2-c2ccc(CC)c3ccccc23)c(Cl)c1,,IC50,,nucleotide incorporation / radiometric,<0.05 µM
CCNc1cccnc1N(C)CCCCCCN(C)C(=O)c1cc2ccccc2[nH]1,,IC50,,nucleotide incorporation,<100 µM
Cc1cc(S(=O)(=O)O)ccc1NC(=O)CSc1nnc(C(F)F)n1-c1ccc(C)c2c1CCCC2,,IC50,RT-Y188L,nucleotide incorporation / radiometric,>0.1 µM
CCNc1ccccc1N1CCN(C(=O)c2cc3ccccc3[nH]2)CC1,,IC50,,nucleotide incorporation,<100 µM
COc1cc(-c2ccc(N=Nc3ccc4c(S(=O)(=O)O)cc(S(=O)(=O)O)c(N)c4c3O)c(OC)c2)ccc1N=Nc1ccc2c(S(=O)(=O)O)cc(S(=O)(=O)O)c(N)c2c1O,RF,IC50,,RT activity,6.1 µM
Cc1ccc(-n2c(SCC(=O)Nc3ccc(S(=O)(=O)NC(C(=O)O)C(C)C)cc3Cl)nnc2C(F)F)c2c1CCCC2,,IC50,RT-Y181C,nucleotide incorporation / radiometric,>0.1 µM
CN1C(=O)c2cccnc2N(C)c2nc(-c3ccc[nH]3)ccc21,,IC50,RT-Y181C,nucleotide incorporation / radiometric,<1 µM
CCOC(=O)CCNC(=O)c1ccc(NC(=O)CSc2nnc(Br)n2-c2ccc(CC)c3ccccc23)c(Cl)c1,,IC50,RT-Y188L,nucleotide incorporation / radiometric,0.05–0.1 µM
CC(C)Nc1cccnc1N(C)CCCCCCN(C)C(=O)c1cc2ccccc2[nH]1,,IC50,,nucleotide incorporation,<100 µM
O=C(CSc1nnc(Br)n1-c1ccc(C2CC2)c2ccccc12)Nc1ccc(C(=O)O)cc1Cl,,IC50,RT-Y188L,nucleotide incorporation / radiometric,0.05–0.1 µM
CC(C)Nc1cccnc1OCCN(C)C(=O)c1cc2ccccc2[nH]1,,IC50,,nucleotide incorporation,<100 µM
CC(C)[C@H](NC(=O)c1ccc(NC(=O)CSc2nnc(Br)n2-c2ccc(C3CC3)c3ccccc23)c(Cl)c1)C(=O)O,,IC50,RT-Y188L,nucleotide incorporation / radiometric,>0.1 µM
CN1C(=O)c2cccnc2N(C2CC2)c2nc(-c3cn[nH]c3)ccc21,,IC50,RT-Y181C,nucleotide incorporation / radiometric,<1 µM
CCc1ccc(-n2c(Br)nnc2SCC(=O)Nc2ccc(C(=O)NCCN3CCCC3)cc2Cl)c2ccccc12,,IC50,RT-Y188L,nucleotide incorporation / radiometric,>0.1 µM
O=C(CSc1nnc(C(F)F)n1-c1ccc(C2CC2)c2ccccc12)Nc1ccc(C(=O)O)cc1Cl,,IC50,,nucleotide incorporation / radiometric,<0.05 µM
Nc1nc2c(ncn2[C@H]2CC[C@@H](COP(=O)(O)OP(=O)(O)OP(=O)(O)O)O2)c(=O)[nH]1,IIIB,IC50,RT-1(IIIB),nucleotide incorporation / radiometric,0.033 µM
O=C(CSc1nnc(Br)n1-c1c(Cl)cc(C2CCC2)c2ccccc12)Nc1ccc(C(=O)O)cc1Cl,,IC50,,nucleotide incorporation / radiometric,<0.05 µM
CCN1c2ncccc2C(=O)N(C)c2ccc(-c3ccn(C)c3)nc21,WT,IC50,,nucleotide incorporation / radiometric,<1 µM
Cc1cc(C)cc(S(=O)(=O)c2c(C(=O)NC(C)CC(N)=O)[nH]c3ccc(Cl)cc23)c1,,IC50,K103N,RT activity,1.69 µM
COc1cccc2c(-n3c(Br)nnc3SCC(=O)Nc3ccc(C(=O)O)cc3Cl)cccc12,,IC50,,nucleotide incorporation / radiometric,<0.05 µM
CC(C)=CCOc1cc(NC(=S)c2ccsc2C)ccc1Cl,,IC50,RT-K103N,,10 µM
CCNc1cccnc1N(C)CCN(C)C(=O)c1cc2ccccc2[nH]1,,IC50,,nucleotide incorporation,~100 µM
CCc1ccc(-n2c(SCC(=O)Nc3ccc(C(=O)O)cc3C)nnc2C(F)F)c2ccccc12,,IC50,RT-Y181C,nucleotide incorporation / radiometric,>0.1 µM
Cc1cc(C)c2ccccc2c1-n1c(CF)nnc1SCC(=O)Nc1ccc(S(N)(=O)=O)cc1Cl,,IC50,RT-Y188L,nucleotide incorporation / radiometric,>0.1 µM
Nc1ccc2cc(S(=O)(=O)O)cc(O)c2c1N=Nc1ccc(NC(=O)Nc2ccc(N=Nc3c(N)ccc4cc(S(=O)(=O)O)cc(O)c34)c(S(=O)(=O)O)c2)cc1S(=O)(=O)O,RF,IC50,,RT activity,4.6 µM
O=C(CSc1nnc(C(F)F)n1-c1ccc(C2CC2)c2ccccc12)Nc1ccc(C(=O)O)cc1Cl,,IC50,RT-Y181C,nucleotide incorporation / radiometric,<0.05 µM
CC(=O)Nc1ccc2[nH]c(C(=O)N3CCN(c4ncccc4NC(C)C)CC3)cc2c1,,IC50,,nucleotide incorporation,<100 µM
NS(=O)(=O)c1ccc(NC(=O)CSc2nnc(C(F)F)n2-c2ccc3c4c(cccc24)CC3)c(Cl)c1,,IC50,RT-Y181C,nucleotide incorporation / radiometric,<0.05 µM
CCN1c2ncc(CCc3cc[n+]([O-])cc3)cc2C(=O)N(C)c2ccc(F)nc21,,IC50,RT-Y181C,nucleotide incorporation / radiometric,<1 µM
CCc1ccc(-n2c(CF)nnc2SCC(=O)Nc2ccc(S(N)(=O)=O)cc2Cl)c2c1CCCC2,,IC50,,nucleotide incorporation / radiometric,<0.05 µM
Cc1nnc2c3ccccc3c(N3CCc4cccnc4C3)nn12,IIIB,IC90,,RT activity / fluorescence,8.37 µM
CCc1ccc(-n2c(Br)nnc2SCC(=O)Nc2ccc(C(=O)NCC(C)(C)N)cc2Cl)c2ccccc12,,IC50,RT-Y188L,nucleotide incorporation / radiometric,0.05–0.1 µM
CCN1c2ncccc2C(=O)N(C)c2ccc(-c3cc[nH]c3)nc21,,IC50,RT-Y188L,nucleotide incorporation / radiometric,<1 µM
Cc1ccc(-n2c(C)nnc2SCC(=O)Nc2ccc(S(N)(=O)=O)cc2Cl)c2c1CCCC2,,IC50,RT-Y181C,nucleotide incorporation / radiometric,0.05–0.1 µM
CC(=O)Nc1ccc2c(c1)CN(c1nn3c(C)nnc3c3ccccc13)CC2,IIIB,IC90,,RT activity / fluorescence,65.1 µM
Cc1cc(C(=O)O)ccc1NC(=O)CSc1nnc(C(F)F)n1-c1ccc(C)c2c1CCCC2,,IC50,RT-Y181C,nucleotide incorporation / radiometric,>0.1 µM
CCc1cc(CCc2nc3ccccc3o2)c(=O)[nH]c1C,,IC50,RT-Y188C,nucleotide incorporation,1.209 µM
CC(C)Nc1cccnc1N(C)CCN(C)C(=O)c1cc2ccccc2[nH]1,,IC50,,nucleotide incorporation,<100 µM
Cc1cc(S(N)(=O)=O)ccc1NC(=O)CSc1nnc(Br)n1-c1ccc(C)c2c1CCCC2,,IC50,,nucleotide incorporation / radiometric,<0.05 µM

For reference, 7 entries again:

structure	strain or isolate	read-out	mutations	read by	result
Cc1ccc(-n2c(SCC(=O)Nc3ccc(S(=O)(=O)NC(C(=O)O)C(C)C)cc3Cl)nnc2C(F)F)c2c1CCCC2		IC50	RT-Y181C	nucleotide incorporation / radiometric	>0.1 µM
CCCN1c2nc(-c3cn[nH]c3)ccc2NC(=O)c2cccnc21	WT	IC50		nucleotide incorporation / radiometric	<1 µM
COc1ccc2c(C)ccc(-n3c(Br)nnc3SCC(=O)Nc3ccc(C(=O)O)cc3Cl)c2c1		IC50	RT-Y181C	nucleotide incorporation / radiometric	<0.05 µM
CCN1c2ncc(CCc3cccc4[nH]ccc34)cc2C(=O)N(C)c2cccnc21		IC50	RT-Y181C	nucleotide incorporation / radiometric	<1 µM
CC(C)Nc1cccnc1OCCOC(=O)c1cc2ccccc2[nH]1		IC50		nucleotide incorporation	<100 µM
CN1C(=O)c2cccnc2N(C)c2nc(-c3ccc[nH]3)ccc21		IC50	RT-Y181C	nucleotide incorporation / radiometric	<1 µM
CCNc1cccnc1N(C)CCCCCCN(C)C(=O)c1cc2ccccc2[nH]1		IC50		nucleotide incorporation	<100 µM

ICn is the concentration giving n% inhibition. Two numbers with a dash give a range or band. Lines come from different laboratories, so protocols vary.